Measured values: publication PMC11496496, “Molecular architecture of monkeypox mature virus” (2024)

Molecular target: MPXV A10 (palisade protein of the viral core) (monkeypox virus)
Assay: cryo-EM structure

For “MPXV A10 (palisade protein of the viral core) (natural protein)”, the stoichiometry N was 3.
